Where “and” joins values, the source holds several entries; their conditions need not be identical. Identical values can stand only once. Inconclusive results and toxic doses are left out. How the source made its calls: active means survival T/C of 150% or more; inactive means T/C below 125% in these data.
Tested on: B6C3F1 mice, B16 melanoma ip, median survival T/C
Assay: NCI In Vivo Anticancer Drug Screen. Data for tumor model B16 Melanoma (intraperitoneal) in B6C3F1 mice
Settings: endpoint: median survival time, schedule: Q01DX009 (ip), vehicle: saline, higher = longer survival
Method: The antitumor activity of compounds was measured in mice bearing transplantable tumors. Survival or tumor size were measured and the results are expressed as the measurement made in the treated group (T) divided by the measurement made in the vehicle treated control group (C). The tumor model used in this assay is B16 Melanoma (intraperitoneal) in B6C3F1 mice

Measured: T/C

O=P1(N(CCCl)CCCl)NC(SCCS(=O)(=O)O)CCO1 (stereo not given)
active: dose: 6.25 mg/kg/injection 178 % of control | dose: 12.5 mg/kg/injection 197 % of control and 202 % of control | dose: 25.0 mg/kg/injection 218 % of control and 242 % of control | dose: 50.0 mg/kg/injection 266 % of control and 344 % of control | dose: 100.0 mg/kg/injection 333 % of control and 344 % of control
